Results on 2 sequences are retold here after publication PMC3036652, “Functional Analysis of an Acid Adaptive DNA Adenine Methyltransferase from Helicobacter pylori 26695” (PLoS ONE, 2011).

Construct, isoform or probe ends are uncertain for at least one entry. Where a protein sequence is shown, tags need not be part of it.

The target in data set [1] is T1, HP0593 DNA-(N6-adenine)-methyltransferase (HP0593 MTase) (Helicobacter pylori 26695) (UniProt O25315).
T1 sequence (looked up): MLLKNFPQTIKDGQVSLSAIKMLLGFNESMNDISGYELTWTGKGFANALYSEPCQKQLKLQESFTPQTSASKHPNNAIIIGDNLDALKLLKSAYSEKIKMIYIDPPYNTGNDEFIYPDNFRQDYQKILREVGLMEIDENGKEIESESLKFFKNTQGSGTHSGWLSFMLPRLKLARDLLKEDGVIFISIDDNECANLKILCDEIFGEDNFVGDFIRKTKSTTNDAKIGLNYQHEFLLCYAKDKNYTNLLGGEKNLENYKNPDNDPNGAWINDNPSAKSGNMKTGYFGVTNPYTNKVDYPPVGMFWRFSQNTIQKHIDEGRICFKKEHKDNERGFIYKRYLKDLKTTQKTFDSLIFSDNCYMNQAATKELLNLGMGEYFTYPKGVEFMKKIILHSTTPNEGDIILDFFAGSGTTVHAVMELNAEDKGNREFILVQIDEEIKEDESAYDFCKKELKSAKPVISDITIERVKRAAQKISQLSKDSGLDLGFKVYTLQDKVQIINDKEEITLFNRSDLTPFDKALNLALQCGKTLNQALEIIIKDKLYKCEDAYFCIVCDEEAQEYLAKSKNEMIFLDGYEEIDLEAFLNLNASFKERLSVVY
Briefly: SPR. The note with it: no metal; SPR: 10 mM HEPES pH 7.4, 100 mM NaCl, 0.05% P-20, ±1.0 mM MnCl2, 25°C, 1:1 Langmuir global fit; recombinant protein; residues 1-598; protein details: N-terminal His6 (pET14b); label: 5' biotin on top strand, immobilized on SA chip.

For data set [2], the target named is T1, HP0593 DNA-(N6-adenine)-methyltransferase (HP0593 MTase) (Helicobacter pylori 26695). Briefly: EMSA. The note with it: no cofactor, no metal, weak complexes CI and CII; EMSA: 10 mM potassium phosphate pH 5.5, 7 mM β-mercaptoethanol, 10% glycerol, no divalent metal, 10 min on ice, 0.5-5.0 µM protein, ~100 nM DNA, gel 0.5x TBE 4°C; recombinant protein; residues 1-598; protein details: N-terminal His6 (pET14b); label: 5' 32P. For orientation: In EMSA bound probe runs differently from free probe, usually more slowly.

A word on the Kd: it is a measure of binding affinity in units of concentration.

For “GATCAATAGATGCGCAGATCATTTACATT (double strand) [duplex 18]”, in data set [1], the Kd is 2840 nM.

In the case of “GATCAATAGATGCGCAGATCATTTACATT (double strand) [duplex 2]”, the binding result in data set [2] is “binds”.
